Source: PubChem BioAssay AID1259415 (National Center for Advancing Translational Sciences (NCATS), 2018)
The entries are a selection whose mix differs from that of the whole data set. Inconclusive results are not listed. The source made the active and inactive calls. No stated cut-off is given here; in the data, active means activity change below about -60%; inconclusive means no clear call, values can overlap the other calls; inactive means above about -39%.

Experiment: qHTS Assay for inhibitors of the human cytomegalovirus (HCMV)
Settings: HFF cells, HCMV-luciferase reporter, 72 h; at 57.5 µM; stronger effect = lower value
Source text: NCGC Assay Overview: Infection with human cytomegalovirus (HCMV) continues to pose significant threats for pregnant women and immunocompromised hosts. HCMV causes serious morbidity and mortality in transplant recipients, and congenital HCMV is the leading infectious cause of mental retardation and deafness in children. In the 1990s, the annual costs associated with the disease burden of congenital CMV were estimated at around $2 billion. A HCMV vaccine is not available yet and HCMV therapies result in intolerable side effects and emergence of drug resistant viruses. […] Towards this goal we have developed and characterized a luciferase HCMV reporter that was initially used in 96 well plates and then optimized to 1536-well plates for utilization in screening of the MLSMR collection, the NGCG diversity collection and the NCGC Pharmaceutical Collection of approved and investigational drugs.
NCGC Assay Protocol Summary:
This is a cell-based assay for HCMV inhibition in HFFs cells. The screening used 2 compound doses and the HCMV-luciferase at MOI of 1 PFU/cell. Cells were treated and infected with HCMV. At 72 h post infection cell lysates were collected and luciferase activity was determined using the Glomax-Multi + Detection System (Promega, Madison, WI). Data were normalized to the controls for basal activity (buffer only) and known HCMV inhibitors Salinmoycin.
1536-well assay protocol for the assay:
(1) Add 3 ul CMV/HFF cell culture. 1000 cells/well in DMEM nirmal media.
(2) Incubate 16 hr at 37C.
(3) Add 23 nl control compound, 10uM of Salinomycin.
(4) Add 23 nl compounds in DMSO solution.
(5) Add 3 ul CMV suspension. Final 1 puf/ul, Virus stock 2000pfu/ul
(6) Incubate 72 hrs at 37C.
(7) Add 4 ul OneGlo Luc Reagent.
(8) Incubate 5 min at room temperature.
On the % scale 0 is the no-effect control and ±100 the full control effect.

Q: For CCN(CC)CC(O)COC(=O)C(O)(c1ccccc1)C1CCCCC1 (stereo not drawn), which activity change, negative = inhibition is on record?
A: inactive: 2.45%

Q: Which activity change, negative = inhibition does the source give for O=C(OCCCN1CCCC1)C(O)(c1ccccc1)C1CCCCC1 (stereo not drawn) here?
A: inactive: -15.8%

Q: For COc1ccccc1OP(C)(=O)Nc1c(C)n(C)n(-c2ccccc2)c1=O (stereo not drawn), which activity change, negative = inhibition is on record?
A: inactive: 44.8%

Q: For CCc1ccc(OP(C)(=O)Nc2cccnc2)cc1 (stereo not drawn), which activity change, negative = inhibition is on record?
A: inactive: -25.5%

Q: Which activity change, negative = inhibition does the source give for CP(=O)(Oc1ccccc1)N1CCOC1=O (stereo not drawn) here?
A: inactive: -20.4%

Q: With COc1ccccc1OP(C)(=O)Nc1ccccc1Br (stereo not drawn) as the compound, how does the activity change, negative = inhibition read?
A: inactive: 91.3%

Q: Which activity change, negative = inhibition does the source give for CC(C)(C)c1ccc(OP(C)(=O)O)cc1 here?
A: inactive: 41%

Q: Which activity change, negative = inhibition does the source give for CP(=O)(Nc1ccc(Cl)cc1)Oc1ccc(F)cc1 (stereo not drawn) here?
A: inactive: 5.46%

Q: Which activity change, negative = inhibition does the source give for CN(C)C(=O)c1c([N+](=O)[O-])cc([N+](=O)[O-])cc1[N+](=O)[O-] here?
A: inactive: 11.9%

Q: With COc1ccccc1OP(C)(=O)Nc1ccc(Br)cc1 (stereo not drawn) as the compound, how does the activity change, negative = inhibition read?
A: inactive: -31.4%

Q: Which activity change, negative = inhibition does the source give for COc1ccc(OP(C)(=O)Nc2ccccn2)cc1 (stereo not drawn) here?
A: inactive: 69%

Q: For CN(C)CCOC(=O)C(O)(c1ccccc1)C1CCCC1 (stereo not drawn), which activity change, negative = inhibition is on record?
A: inactive: 2.71%

Q: Which activity change, negative = inhibition does the source give for Cc1c(NP(C)(=O)Oc2ccc(C(C)C)cc2)c(=O)n(-c2ccccc2)n1C (stereo not drawn) here?
A: inactive: 1.97%

Q: For O=[N+]([O-])c1cc([N+](=O)[O-])c(Nc2ccccn2)c([N+](=O)[O-])c1, which activity change, negative = inhibition is on record?
A: inactive: -31.9%

Q: Which activity change, negative = inhibition does the source give for COc1ccccc1OP(C)(=O)Nc1ccc(C)cc1C (stereo not drawn) here?
A: inactive: 38%

Q: With CP(=O)(Nc1ccccn1)Oc1ccccc1 (stereo not drawn) as the compound, how does the activity change, negative = inhibition read?
A: inactive: 12%

Q: With CCc1ccc(OP(C)(=O)O)cc1 as the compound, how does the activity change, negative = inhibition read?
A: inactive: -26.3%

Q: With Cc1cc(C)cc(OP(C)(=O)Nc2cccc(C(F)(F)F)c2)c1 (stereo not drawn) as the compound, how does the activity change, negative = inhibition read?
A: inactive: -38.2%

Q: Which activity change, negative = inhibition does the source give for COc1ccccc1OP(C)(=O)Nc1ccc(C)c(C)c1 (stereo not drawn) here?
A: inactive: -9.87%

Q: For COc1ccc(OP(C)(=O)Nc2ccccc2Br)cc1 (stereo not drawn), which activity change, negative = inhibition is on record?
A: inactive: -7.01%

Q: With CCCCCCCCCCCCCCCC1C[N+](C)(C)CCOP(C)(=O)O1 (stereo not drawn) as the compound, how does the activity change, negative = inhibition read?
A: inactive: -33.4%

Q: With CP(=O)(Nc1ccc(Cl)cc1Cl)Oc1ccccc1 (stereo not drawn) as the compound, how does the activity change, negative = inhibition read?
A: inactive: -14.9%

Q: With CP(=O)(OCCOc1ccccc1)OCCOc1ccccc1 as the compound, how does the activity change, negative = inhibition read?
A: inactive: 9.74%
